# Test system: S. aureus DP7-R
# Assay type: cell-based, Staphylococcus aureus
# Conditions: DP7-resistant strain obtained from ATCC 25923
# Experimental: Subsequently, the bacterial samples were counted at different time points (0, 1, 2, 4, 6, 8, 18, and 24 h).
# For every 48 h, we transferred 2% of each culture to new flasks containing fresh medium with a twofold higher DP7 concentration. […] Aliquots from each population were stored in 20% glycerol at -80°C.
sequence,measurement,value
"VQLRIRVCVIRK [DP10, synthesized antimicrobial peptide]",MIC for DP7-R,256 µg/mL

# — publication PMC6546875, “Efficacy of Antimicrobial Peptide DP7, Designed by Machine-Learning Method, Against Methicillin-Resistant Staphylococcus aureus” (Frontiers in Microbiology, 2019)
